Pooled drug test results. Numbers come from NIAID ChemDB, via PubChem.

Shared fields: enzyme or target tests; organism: HIV-1; protein: Integrase; measure: IC50

An empty or dashed field is not shown. ICn: concentration for n% inhibition. Rows are shuffled and stem from different studies. Two numbers with a dash give a range or band.

SMILES	strain	mutations	method	result
OC1/C(=C/c2ccc(Cl)c(Cl)c2)CCC/C1=C\c1ccc(Cl)c(Cl)c1			3′ processing	>100 µM
O=C(NCc1ccc(O)c(O)c1)c1cc2cc(O)c(O)cc2[nH]1			3′ processing	11 µM
CCO/C(CC(=O)NCc1ccc(OC)cc1)=N\Nc1ccccc1[N+](=O)[O-]			strand transfer	>250 µM
CN(C)CCCNC(=O)c1ccc2nc(-c3ccc4nc(-c5ccc(OCCOCCOCCOc6ccc(-c7nc8ccc(-c9nc%10ccc(C(=O)NCCCN(C)C)cc%10[nH]9)cc8[nH]7)cc6)cc5)[nH]c4c3)[nH]c2c1			strand transfer	16 µM
COc1ccccc1-c1cn2ccn(Cc3cccc(Cl)c3)c(=O)c2c(O)c1=O			ELISA	0.01–0.1 µM
Cc1cn([C@H]2C[C@H](O)[C@@H](COP(=O)(O)O[C@H]3[C@H](n4cnc5c(N)ncnc54)CO[C@@H]3COP(=O)(O)O)O2)c(=O)nc1N			3′ processing	60 µM
O=C(/C=C/c1ccc(O)c(O)c1)OCCc1ccccc1		C65S	3′ processing	11 µM
O=C1/C(=C/c2cc(O)c(O)c(O)c2)CC/C1=C\c1cc(O)c(O)c(O)c1			disintegration	0.2 µM
O=C1c2c(O)c(=O)n(CC3CCCCC3)c(=S)n2CCN1Cc1ccc(F)cc1			strand transfer	<10 µM
CCO/C(CC(=O)NCc1ccc(C)cc1)=N\Nc1ccccc1[N+](=O)[O-]			strand transfer	>250 µM
O=C1c2c(O)c(=O)n(C3CCOC3)c(=O)n2CCN1Cc1ccc(F)cc1			strand transfer	<10 µM
COc1ccc(/C=C/C(=O)OCCc2ccc(N=C=S)cc2)cc1OC		C65S	3′ processing	>100 µM
OC(/C=C/c1ccc(Cl)c(Cl)c1)/C=C/c1ccc(Cl)c(Cl)c1			strand transfer	>100 µM
N#Cc1ccccc1-c1ccc(CSc2nc3ccccc3s2)cc1			3′ processing	>1000 µM
Cc1cn([C@H]2C[C@H](O)[C@@H](COP(=O)(O)O[C@H]3[C@H](n4cnc5c(N)ncnc54)CO[C@@H]3COP(=O)(O)O)O2)c(=O)[nH]c1=O			strand transfer	150 µM
O=C(NCCCN1CCN(CCCNC(=O)c2cc3cc(O)c(O)cc3[nH]2)CC1)c1cc2cc(O)c(O)cc2[nH]1			3′ processing	5 µM
[N-]=[N+]=NC[C@H]1O[C@@H](n2cnc3c(N)ncnc32)[C@H](O)[C@@H]1CC(=O)O	NL4-3		3′ processing	>10 µM
CCCC(CCCCCCCc1cc(O)cc(O)c1C(=O)OC(CCC)CCCCCCCc1cc(O)cc(O)c1)OC(C)=O			strand transfer	31 µM
O=C(NCc1ccccc1)c1cc2cc(O)c(O)cc2[nH]1			3′ processing	25 µM
CCCCCN1CCn2cc(-c3nccs3)c(=O)c(O)c2C1=O			ELISA	0.1–1 µM
COc1ccc(CCNC(=O)c2cc3cc4c(cc3[nH]2)OCO4)cc1OC			3′ processing	>100 µM
O=C(Nc1cn2c(c(O)c1=O)C(=O)N(Cc1cccc(Cl)c1F)CC2)c1cccnc1			ELISA	0.01–0.1 µM
CC(C)(C)c1ccc(CNC(=O)/C=C(\O)C(=O)O)cc1			strand transfer	>70 µM
O=C1c2c(O)c(=O)c(-c3ccncn3)cn2CCN1Cc1ccc(Cl)cc1			ELISA	0.01–0.1 µM
Cc1cc(=O)n(-c2ccccc2)n1C(=O)c1ccco1			3′ processing	450 µM
Cc1cc2c(cc1Cl)SC(C(=O)c1ccc3ccccc3c1)=NS2(=O)=O		INTG-C65S	strand transfer	15 µM
O=C(NCc1ccc2c(c1)OCO2)c1cc2cc3c(cc2[nH]1)OCO3			3′ processing	>100 µM
N#Cc1ccccc1-c1ccc(CN2C(=O)C(=O)c3ccccc32)cc1			strand transfer	>1000 µM
CCOC(=O)CC1C/C(=C\c2cc(O)c(O)c(O)c2)C(=O)/C(=C/c2cc(O)c(O)c(O)c2)C1			3′ processing	2.6 µM
O=C(O)/C(O)=C/C(=O)N(CCCc1ccccc1F)Cc1ccc(F)cc1			strand transfer	<70 µM
Cc1cc(Cl)cc2c1S(=O)(=O)N=C(C(=O)c1ccc3ccccc3c1)S2		INTG-C65S	strand transfer	20 µM
O=C(NCCCCCCNC(=O)c1cc2cc(O)c(O)cc2[nH]1)c1cc2cc(O)c(O)cc2[nH]1			3′ processing	46 µM
CC(C)n1c(=O)c(O)c2n(c1=O)CCN(Cc1ccccc1C#N)C2=O			strand transfer	<10 µM
O=C(O)/C(O)=C/C(=O)N(Cc1ccc(F)cc1)c1ccc(Cl)cc1			strand transfer	<70 µM
O=C(O)CC1C/C(=C\c2cc(O)c(O)c(O)c2)C(=O)/C(=C/c2cc(O)c(O)c(O)c2)C1			3′ processing	0.2 µM
CC1(C)CC(n2c(=O)c(O)c3n(c2=O)CCN(Cc2ccc(F)cc2)C3=O)CCO1			strand transfer	<10 µM
Cn1cc2c(c(O)c1=O)C(=O)N(Cc1cccc(Cl)c1)CC2			ELISA	0.01–0.1 µM
CNCCC1CN(Cc2ccc(F)cc2)C(=O)c2c(O)c(=O)n(C(C)C)c(=O)n21			strand transfer	<10 µM
O=C(NCCCCNC(=O)c1cc2cc(O)c(O)cc2[nH]1)c1cc2cc(O)c(O)cc2[nH]1			3′ processing	11 µM
CN(C(=O)/C=C(\O)C(=O)O)C(c1ccc(F)cc1)c1cccnc1			strand transfer	<70 µM
O=C1c2c(O)c(=O)n(C3CCN(CC4CC4)CC3)c(=O)n2CCN1Cc1ccc(F)cc1			strand transfer	<10 µM
O=c1c(S(=O)c2ccccc2)cn2ccn(Cc3cccc(Cl)c3)c(=O)c2c1O			ELISA	0.01–0.1 µM
O=C1/C(=C/c2cc(O)c(O)c(O)c2)CNC/C1=C\c1cc(O)c(O)c(O)c1			3′ processing	0.3 µM
CCO/C(CC(=O)NCc1ccc(Cl)cc1)=N\Nc1ccccc1[N+](=O)[O-]			strand transfer	>250 µM
O=C(/C=C/c1ccc(O)c(O)c1)OCCc1ccc(N=C=S)cc1		C65S	3′ processing	7 µM
O=C(CN1CCOCC1)N1CCC(n2c(=O)c(O)c3n(c2=O)CCN(Cc2ccc(F)cc2)C3=O)CC1			strand transfer	<10 µM
O=C(/C=C/c1ccc(O)c(O)c1)Oc1ccc2cccc(N=C=S)c2c1		C56S	3′ processing	11 µM
[N-]=[N+]=NC[C@H]1O[C@@H](n2cnc3c(NC(=O)Nc4ccccc4)ncnc32)[C@H](O)[C@@H]1CC(=O)O	NL4-3		strand transfer	>10 µM
CN(C)C(=O)c1cc(=O)c(O)c2n1CCN(Cc1ccc(Cl)c(Cl)c1)C2=O			ELISA	0.01–0.1 µM
CC(C)n1c(=O)c(O)c2n(c1=O)C(CCn1ccnc1)CN(Cc1ccc(F)cc1)C2=O			strand transfer	<10 µM
Cc1cc2c(cc1Cl)SC(C(=O)c1ccc([N+](=O)[O-])cc1)=NS2(=O)=O		INTG-C65S	strand transfer	11 µM
C[C@H](NC(=O)/C=C(\O)C(=O)O)c1ccccc1			strand transfer	>70 µM
O=S(=O)(Nc1ccc(F)c(Cl)c1)c1cccc2cnccc12			3′ processing	860 µM
O=C(NCCF)c1cn2ccn(Cc3cccc(Cl)c3)c(=O)c2c(O)c1=O			ELISA	<0.01 µM
CN1C/C(=C\c2ccc(O)c(O)c2)C(=O)/C(=C/c2ccc(O)c(O)c2)C1			strand transfer	0.9 µM
O=C(/C=C/c1ccc(O)c(O)c1)OCCc1cccc(N=C=S)c1		C65S	3′ processing	8 µM
CN(Cc1ccccc1F)C(=O)/C=C(\O)C(=O)O			strand transfer	<70 µM
CNC(=O)NC[C@H]1O[C@@H](n2cnc3c(NC(=O)Nc4ccccc4)ncnc32)[C@@H]2OC(=O)C[C@@H]21	NL4-3		strand transfer	>10 µM
Cc1cc2c(cc1Cl)SC(C(=O)c1ccccc1)=NS2(=O)=O		INTG-C65S	strand transfer	90 µM

For reference, 7 entries again:

SMILES,strain,mutations,method,result
O=C1c2c(O)c(=O)n(CC3CCCCC3)c(=S)n2CCN1Cc1ccc(F)cc1,,,strand transfer,<10 µM
[N-]=[N+]=NC[C@H]1O[C@@H](n2cnc3c(N)ncnc32)[C@H](O)[C@@H]1CC(=O)O,NL4-3,,3′ processing,>10 µM
O=C(NCc1ccc2c(c1)OCO2)c1cc2cc3c(cc2[nH]1)OCO3,,,3′ processing,>100 µM
CN(Cc1ccccc1F)C(=O)/C=C(\O)C(=O)O,,,strand transfer,<70 µM
Cc1cc2c(cc1Cl)SC(C(=O)c1ccccc1)=NS2(=O)=O,,INTG-C65S,strand transfer,90 µM
N#Cc1ccccc1-c1ccc(CSc2nc3ccccc3s2)cc1,,,3′ processing,>1000 µM
O=C1/C(=C/c2cc(O)c(O)c(O)c2)CC/C1=C\c1cc(O)c(O)c(O)c1,,,disintegration,0.2 µM